The record followed here is paper PMC5947656.

This data set deals with CsoR. The experiment in a line: EMSA. Particulars: apo (metal-free) CsoR, anaerobic, 0-100 uM, 20 mM Hepes, 100 mM NaCl, pH 7.0, 1 mM DTT, 0.4 mg/ml BSA, 100 ng/ul poly(dI-dC), 100 nM target DNA + 100 nM control DNA, 30 min, room temperature, recombinant protein, residues 1-97, label: none (SYBR Safe stain), probe letters rebuilt from the primers and the genome, part of a longer molecule. (In general: Mobility shift assays separate free from complexed probe on a gel.)

The exact form of at least one protein or probe is not confirmed.

Regarding “ATTTCTTTTAAGTCACCTAAGAATTGCAAATCCAGAAGTCATTTAAGTTTTACCTTTCATTCATACATCCTTTAATATTAATTACGACTTCTTTTATATAGATGCTAAGTAGAGAGATTGTTGTGCAATGTTTGCACGGCAATCTCTCTTTTTCTTTTTAAAATTGGTAAAAGTAAAACGCAACGATTGACTTATATACCTATAGGGGGTACATTAGACGTGTAACAATGAATCACAGGGAGGCAATAATGTGG (double strand) [PcopA]”, the binding result is listed as “binds”. For “CTTTAAGAATATTAATATATGACTTGTGTTGGTAATGATAACCTTGGTTAGAGTGTATTGTCATGTGATAGTTAAGATTAGATCTTTTAATTAAAACATTGTTTTAAATATCGATGACAAGGTCTAATGTAGGACGTGTAGATATAAGGTTCGGAATTATATAAATCCATAAAAGGAGATAAATCGAAAACCTTTATACCCTGGGTGGGTATATGTTATAGTATAAGTAGCTTTACTATAACATTTTCATTAGGAGGGGTTAATTTG (double strand) [PcopX]” the value was “binds”.
